Results of unrelated studies side by side (data: NIAID ChemDB).

Shared fields: tests in culture; species: Mycobacterium tuberculosis

MIC bound comes from a single tested concentration. ECn: concentration that inhibits the pathogen or its effect by n%. "inactive" is the filed call at that dose; no cut-off is given. A number after MIC or MFC names an inhibition level or a share of isolates. Neighbouring rows are from separate reports. Inhibition is in % at the dose shown (toxicity tests: loss of growth or viability). Blank or dashed fields: not listed here.

compound	tested at	read by	measure	strain or isolate	result
Cc1ccnc(NS(=O)(=O)c2ccc(NC(=S)Nc3ccc(C(=O)O)c(O)c3)cc2)n1	-	broth dilution	MIC90	H37Rv	>12.5 µg/mL
CCCCCCOc1ccc(NC(=O)OC(C)CN2CCCCC2)cc1	-	-	MIC	My 331/88	8 µM
Cc1c[nH]c(C)c1C(=O)N/N=C/c1ccc([N+](=O)[O-])o1	-	BACTEC	EC50	H37Rv	>6.25 µg/mL
O=C(O)c1ccc(Nc2nnc(-c3ccncc3)s2)cc1O	12.5 µg/mL	resazurin	inhibition	H37Rv	90%
COC1=CC(=O)C2=C(OCO2)C1=O	12.5 µg/mL	BACTEC	inhibition	H37Rv	9%
COc1cc(C2C(Cl)C(=O)N2c2cc(C(C)C)c(O)cc2C)ccc1O	100 µg/mL	-	inhibition	H37Rv	inactive
CSc1ncnc2c([C@@H]3O[C@H](CO)[C@@H](O)C3O)[nH]nc12	-	BACTEC	MIC bound	H37Rv	>12.5 µg/mL
Cc1cc(=O)n2[nH]c(Nc3ccc(Cl)c(Cl)c3)c(C(N)=O)c2n1	-	resazurin	MIC	H37Rv	6.25 µg/mL
O=C(O)CN1N=NC2C(=O)NNC(=O)C21	12.5 µg/mL	BACTEC	inhibition	H37Rv	0%
COc1cc(C=C2C(=O)N=C(C)N2c2cc(C(C)C)c(O)cc2C)ccc1O	100 µg/mL	-	inhibition	H37Rv	inactive
CSC(=S)N/N=C(/C)c1ccco1	-	-	MIC	RMP-R	0.4 µg/mL
[N-]=[N+]=NCCCCCCCCN1C(=O)C(=O)c2cc(Cl)ccc21	-	-	MIC99	MC2 6230	158 µM
CCOC(=O)c1cc(-c2ccccc2)[nH]c1CC(=O)N/N=C/c1c[nH]c2ccccc12	-	BACTEC	EC50	H37Rv	>6.25 µg/mL
CCCCCCCCCCCCCCCC(=O)N(O)CCCC[C@H](NC(=O)C1COC(c2ccccc2O)=N1)C(=O)O[C@H](C)[C@H](NC(=O)OC(C)(C)C)C(=O)N[C@H]1CCCCN(O)C1=O	-	-	MIC	H37Rv	>12.5 µg/mL
Cc1c(CN2CCN(C)CC2)cc(-c2ccc(Cl)cc2)n1-c1ccc(Cl)cc1	-	-	MIC	H37Rv	<12.5 µg/mL
COc1ccc(N2CSC(=S)N(c3ccc(OC)cc3)C2)cc1	-	BACTEC	MIC bound	H37Rv	>12.5 µg/mL
O=[N+]([O-])c1ccc(-c2nnc(SCc3ccc(Cl)cc3)s2)o1	6.25 µg/mL	-	inhibition	H37Rv	20%
[N-]=[N+]=NCCN1C(=O)C2(OCCO2)c2cc(Cl)ccc21	-	-	MIC99	MC2 6230	>340 µM
CCS(=O)(=O)c1nnc(-c2ccc([N+](=O)[O-])o2)s1	6.25 µg/mL	-	inhibition	H37Rv	100%
Cc1cc(C)c2c(c1)C(O)(N1CCCC(C)C1)C(=O)N2	-	resazurin	MIC	18b	>16 µg/mL
CN1/C(=C/C(=O)NN)N(C)c2ncccc21	-	-	MIC	193	250 µg/mL
CCOC(=O)c1ccc(NC(=S)NC(=O)c2cccs2)o1	12.5 µg/mL	BACTEC	inhibition	H37Rv	56%
O=[N+]([O-])c1ccc(-c2nnc(S(=O)(=O)Cc3ccccc3)s2)o1	6.25 µg/mL	-	inhibition	H37Rv	57%
CCCCCCn1c(-c2ccc(Cl)cc2)cc(CN2CCOCC2)c1C	-	-	MIC	H37Rv	<12.5 µg/mL
CC1=C(CCCNc2ccc(C(=O)NC(CCC(=O)O)C(=O)O)cc2)C(O)N=C(N)N1	12.5 µg/mL	BACTEC	inhibition	H37Rv	17%
O=C(O)c1ccc(NC(=O)C(F)(F)F)cc1O	-	broth dilution	MIC90	H37Rv	<12.5 µg/mL
Cc1ccccc1S(=O)(=O)N1C(=O)c2ccccc2S1(=O)=O	-	BACTEC	MIC bound	H37Rv	>12.5 µg/mL
CCCCCCCCCCCCCCCC(=O)N(O)CCCC[C@@H](NC(=O)[C@@H]1COC(c2ccccc2O)=N1)C(=O)NCCC(=O)NC1CCCCN(O)C1=O	-	-	MIC	H37Rv	>12.5 µg/mL
CCOc1ccc(NC(=O)c2c(Nc3ccc(C)cc3C)[nH]n3c(=O)cc(C)nc23)cc1	-	resazurin	MIC	H37Rv	50 µg/mL
CC[C@@H](CO)NCCN[C@@H](CC)CO	-	-	MIC	H37Rv	1.733 µg/mL
CC(O)C1(O)C(O)CC(OC2c3cc4c(c(O)c3[C@@H]3C[C@@]2(C)OC32C=c3cc[nH]c3=N2)C(=O)c2cccc(O)c2C4=O)OC1C	-	-	MIC	TAC-R	0.2 µg/mL
CCCCCCOc1cccc(NC(=O)OC(C)CN2CCCCC2)c1	-	-	MIC	My 331/88	8 µM
[N-]=[N+]=NCCCCCCN1C(=O)C(=O)c2ccccc21	-	-	MIC99	MC2 6230	>368 µM
Cc1ccc(-c2ccc(Cl)cc2)n1Cc1ccccc1	-	-	EC50	H37Rv	<12.5 µg/mL
Nc1ccc2nc3ccc(O)cc3nc2c1.S.[Na+].[Na+].[SH-]	12.5 µg/mL	BACTEC	inhibition	H37Rv	-14%
Cc1cc(O)c(C(C)C)cc1N1C(=O)C(Cl)C1c1ccccc1	100 µg/mL	-	inhibition	H37Rv	inactive
COc1cc2c(cc1Oc1ccc(OC)c3c1CC1c4c(cc(OC)c(OC)c4-3)CCN1C)CC1c3c(cc(OC)c(OC)c3-2)CCN1C	12.5 µg/mL	BACTEC	inhibition	H37Rv	100%
Cn1cccc2nc(C/C(N)=N/O)nc1-2	-	-	MIC	193	500 µg/mL
CC(N[C@H]1CS(=O)(=O)C[C@@H]1S(=O)(=O)c1ccc(F)cc1)c1ccccc1	-	resazurin	MIC	18b	16 µg/mL
Cc1ccnc(NS(=O)(=O)c2ccc(N3C(=O)CC(=O)N(c4ccc(C(=O)O)c(O)c4)C3=S)cc2)n1	12.5 µg/mL	resazurin	inhibition	H37Rv	87%
CCCC(=O)OCc1cc(=O)n(C)c2c3c4c(cc12)c(C)cc(=O)n4CO3	-	-	MIC	PAS-R	0.2 µg/mL
CCOC(=O)c1c(C)c(-c2ccccc2)n(CC(=O)N/N=C/c2cn(C(C)=O)c3ccccc23)c1C	6.25 µg/mL	BACTEC	inhibition	H37Rv	0%
C/C(O)=C(/C=N/C(=S)Nc1ccc(S(N)(=O)=O)cc1)C(=O)Nc1ccccc1C	6.25 µg/mL	resazurin	inhibition	H37Rv	9%
CCCCCCCOc1ccccc1NC(=O)OC(COCC)CN1CCCCC1	-	-	MIC	My 331/88	32 µM
Cc1ccc2c(c1)C(=O)C(=O)N2CCCCCCN=[N+]=[N-]	-	-	MIC99	MC2 6230	174 µM
CCOC(=O)c1cc(-c2ccccc2)n(CC(=O)N/N=C/c2ccccc2O)c1C	-	BACTEC	EC50	H37Rv	>6.25 µg/mL
Cc1cc(CN2CCN(C)CC2)c(C)n1C1CCCCC1	-	-	MIC	103471	8 µg/mL
C=C(C)/C=C/[C@]12C[C@H](C)[C@H]3CC[C@](C)(NC=O)[C@@H](CC[C@H]1C)[C@@H]32	128 µg/mL	-	inhibition	H37Rv	99%
COCc1cc(C)nc(N/N=C/c2cc(OC)ccc2OC)c1C#N	-	resazurin	MIC	18b	16 µg/mL
CC1COc2c(N3CCN(C)CC3)c(F)cc3c(=O)c(C(=O)O)cn1c23	-	-	MIC90	55 isolates (RMP INH-R)	2 µg/mL
COc1ccccc1C1SC(C)C(=O)N1c1cc(C(C)C)c(O)cc1C	100 µg/mL	-	inhibition	H37Rv	inactive
Cc1ccc(/C=C(\C(N)=S)c2nc3cccnc3n2C)c(C)c1	-	-	MIC	193	15.6 µg/mL
Cc1c(CN2CCN(C)CC2)cc(-c2ccc(Cl)cc2)n1Cc1ccccc1	-	-	MIC	103471	4 µg/mL
Cc1cc(=O)n2[nH]c(Nc3ccc(Cl)c(Cl)c3)c(C(=O)Nc3cccc(C)c3C)c2n1	-	resazurin	MIC	H37Rv	50 µg/mL
CCCCCCCOc1ccc(NC(=O)OCCN2CCCCC2)cc1	-	-	MIC	My 331/88	16 µM
Cc1cc(=O)n2[nH]c(Nc3ccc(Cl)cc3)c(C(N)=O)c2n1	-	resazurin	MIC	H37Rv	50 µg/mL
Cc1c(CN2CCOCC2)cc(-c2ccc(Cl)cc2)n1C1CCCCC1	-	-	EC50	H37Rv	<12.5 µg/mL
CCOC(=O)c1c(C)[nH]c(C(=O)N/N=C/c2ccc([N+](=O)[O-])o2)c1C	6.25 µg/mL	BACTEC	inhibition	H37Rv	40%
CCCCOc1ccc(NC(=O)OC(C)CN2CCCCC2)cc1	-	-	MIC	My 331/88	62.5 µM
CC1(C)CC2(C)OC(=O)c3ccccc3N2C(=S)N1	-	BACTEC	MIC bound	H37Rv	>12.5 µg/mL
O=[N+]([O-])c1ccc(-c2nnc(SCc3ccc(F)cc3Cl)s2)o1	6.25 µg/mL	-	inhibition	H37Rv	0%
Cc1c(CN2CCOCC2)c(CN2CCOCC2)c(-c2ccc(Cl)cc2)n1Cc1ccccc1	-	-	MIC	H37Rv	<12.5 µg/mL
C=C[C@]1(C)C[C@@H](OC(=O)CO)[C@]2(C)C(C)CC[C@]3(CCC(=O)C32)[C@@H](C)[C@@H]1O	12.5 µg/mL	BACTEC	inhibition	H37Rv	88%
Cc1cc(O)c(C(C)C)cc1N1C(=O)C(CC(=O)O)SC1c1ccc([N+](=O)[O-])cc1	100 µg/mL	-	inhibition	H37Rv	inactive
CN1C(=O)OC2C3NC(=O)OC3C(O)C(O)C21	12.5 µg/mL	BACTEC	inhibition	H37Rv	0%
COc1ccc(NC(=O)c2c(N3CCOCC3)[nH]n3c(=O)cc(C)nc23)cc1	-	resazurin	MIC	H37Rv	25 µg/mL
Cc1nnc2nc3c(nn12)c1ccccc1n3C	6.25 µg/mL	resazurin	inhibition	H37Rv	33%
Cc1ccc(/C=C(\C(N)=S)c2nc3ncccc3[nH]2)c(C)c1	-	-	MIC	109	7.8 µg/mL
Cc1ccc(NC(=O)c2c(Nc3ccccc3)[nH]n3c(=O)cc(C)nc23)cc1	-	resazurin	MIC	H37Rv	50 µg/mL
Cc1ccc(NC(=O)CSc2nnc(-c3ccco3)o2)cc1F	-	resazurin	MIC	18b	4 µg/mL
Cc1cc(O)c(C(C)C)cc1N1C(=O)CSC1c1cccc(O)c1	100 µg/mL	-	inhibition	H37Rv	inactive
CCOC(=O)c1c(C)c(-c2ccccc2)n(CCC(=O)NN)c1C	6.25 µg/mL	BACTEC	inhibition	H37Rv	0%
O=C(NNC(=S)Nc1ccc(C(=O)O)c(O)c1)c1ccncc1	12.5 µg/mL	resazurin	inhibition	H37Rv	96%
Cc1cc(=O)n2[nH]c(Nc3cccc(C)c3C)c(C(=O)Nc3cccc(Cl)c3)c2n1	-	resazurin	MIC	H37Rv	50 µg/mL
[N-]=[N+]=NCCN1C(=O)C2(OCCO2)c2cc(F)ccc21	-	-	MIC99	MC2 6230	>360 µM
CCN1CCN(c2[nH]n3c(=O)cc(C)nc3c2C(=O)Nc2cccc(Cl)c2Cl)CC1	-	resazurin	MIC	H37Rv	50 µg/mL
CC1OC2CC(=O)OC2c2c(O)c3c(c(O)c21)C(=O)C1=C(C3=O)C2CC(O)C1(O)C(C)O2	6.25 µg/mL	resazurin	inhibition	H37Rv	14%
Cc1cc(O)c(C(C)C)cc1N1C(=Cc2ccoc2)C(=O)N=C1c1ccccc1	100 µg/mL	-	inhibition	H37Rv	inactive
COc1c2c(cc3c1C1Oc4c(ccc(O)c4CC=C(C)C)C1CO3)OC(C)(C)C=C2	-	-	MIC	CS-R	12.5 µg/mL
CCCCCCOc1cccc(NC(=O)OCCN2CCCCC2)c1	-	-	MIC	My 331/88	16 µM
Cc1cc(O)c(C(C)C)cc1N1C(=O)C(Cl)C1c1ccoc1	100 µg/mL	-	inhibition	H37Rv	inactive
c1cnc2c(c1)ccc1cccnc12	-	-	EC50	H37Rv	0.8 µg/mL
CC1CCN(C(=O)c2ccc(NC(=O)C3CC(=O)OC34CCCCC4)cc2)CC1	-	resazurin	MIC	18b	16 µg/mL
CCOC(=O)c1cc(-c2ccc(OC)cc2)n(CCC(=O)NN)c1C	-	BACTEC	EC50	H37Rv	>6.25 µg/mL
CCCCCCn1c(C)ccc1C	-	-	EC50	H37Rv	<12.5 µg/mL
C1CCNCC1.S=C(S)N1CCCCC1	-	BACTEC	MIC	H37Rv	1.6 µg/mL
CCCCCCOc1ccc(NC(=O)OCCN2CCCCC2)cc1	-	-	MIC	My 331/88	16 µM